Measured values from several laboratories, pooled; numbers as filed in NIAID ChemDB.

All rows: growth or infection tests; species: HIV-1; read-out: fold resistance

Fold resistance has wild type as its base.

Nc1ccn([C@H]2CC[C@@H](CO)O2)c(=O)n1 ; strain or isolate: HXB2 ; cell line: HELA/CD4 + HELA CD4+ ; method: plaque count ; mutations: Dideoxynucleoside-resistant (RT L74V) ; result: 3.8
Cc1cn([C@H]2C[C@H](N=[N+]=[N-])[C@@H](CO)O2)c(=O)[nH]c1=O ; strain or isolate: HXB2 ; cell line: HELA/CD4 + HELA CD4+ ; method: plaque count ; mutations: RT-M184I ; result: 0.05
Nc1ccn([C@H]2CC[C@@H](CO)O2)c(=O)n1 ; strain or isolate: HXB2-D184 (RT-M184V) ; cell line: MT-4 ; method: RT activity ; mutations: RT-M184V ; result: 5.45
O=c1[nH]cnc2c1ncn2[C@H]1CC[C@@H](CO)O1 ; strain or isolate: 7295-1 NRTI resistant recombinant ; cell line: PBMC ; method: RT activity ; mutations: RT-D67N T69N K70R M184V T215F K219Q ; result: 1.9
Nc1ccn([C@H]2CC[C@@H](CO)O2)c(=O)n1 ; strain or isolate: HXB2 ; cell line: HT4 + HT4 LacZ-1 ; method: plaque count ; mutations: RT-Y181C M184V ; result: 3.625
CCc1c(C(=O)c2cc(C)cc(C)c2)n(CC2CC=CC2)c(=O)[nH]c1=O ; strain or isolate: NL4-3 ; cell line: CEM + CEM-SS ; method: cytopathic effect / XTT ; mutations: RT-K101E ; result: >70
COC(=O)c1cc2c(c(OC)c1-c1ccc(N(C)C)cc1)OCO2 ; strain or isolate: NL4-3 ; cell line: C8166 ; method: antigen ; mutations: V108I ; result: 25
Cc1occc1C(=S)Nc1ccc(Cl)c(/C=N/OC(C)(C)C)c1 ; strain or isolate: Costatolide-resistant (RT Y188H) ; cell line: CEM + CEM-SS ; method: cytopathic effect / XTT ; mutations: RT-Y188H ; result: 8
CC(=O)Oc1ccc(/C=C/C(=O)O[C@@H](C(=O)O)[C@@H](OC(=O)/C=C/c2ccc(OC(C)=O)c(OC(C)=O)c2)C(=O)O)cc1OC(C)=O ; strain or isolate: NL4-3 ; cell line: MT-4 ; method: cytopathic effect / MTT ; mutations: AMD3100-resistant ; result: >9
Cc1cn([C@H]2C[C@H](N=[N+]=[N-])[C@@H](CO)O2)c(=O)[nH]c1=O ; strain or isolate: T215Y(RT-T215Y) ; cell line: MT-2 ; method: p24 ; mutations: RT-T215Y ; result: 5.6
O=c1[nH]cnc2c1ncn2[C@H]1CC[C@@H](CO)O1 ; strain or isolate: RT-M41L T69SSG T215Y ; cell line: HeLa ; method: β-galactosidase ; mutations: RT M41L T69SSG insertion T215Y ; result: 3.13
CC(C)OC(=O)OCOP(=O)(CO[C@H](C)Cn1cnc2c(N)ncnc21)OCOC(=O)OC(C)C ; strain or isolate: 74V (ddI- ddC-resistant RT L74V) ; cell line: MT-2 ; method: p24 ; mutations: RT-L74V ; result: 0.947
Cc1ccnc2c1NC(=O)c1cccnc1N2C1CC1 ; strain or isolate: NL4-3 (RT L100I) ; cell line: CEM + CEM-SS ; method: cytopathic effect / XTT ; mutations: RT-L100I ; result: 5
Cc1cn([C@H]2C[C@H](N=[N+]=[N-])[C@@H](CO)O2)c(=O)[nH]c1=O ; mutations: INTG-S153Y ; result: 1
C#C[C@]1(CO)O[C@@H](n2cc(C)c(=O)[nH]c2=O)C[C@@H]1O ; cell line: HeLa ; method: β-galactosidase ; mutations: RT-M184I ; result: 0.389
Cc1cn([C@H]2C[C@H](N=[N+]=[N-])[C@@H](CO)O2)c(=O)[nH]c1=O ; strain or isolate: 4xAZT(RT-D67N K70R T215Y K219Q) ; cell line: CEM + CEM-SS ; method: cytopathic effect / XTT ; mutations: RT-D67N K70R T215Y K219Q ; result: 820
Nc1nc(=O)n([C@@H]2CS[C@H](CO)O2)cc1F ; strain or isolate: HXB2 ; cell line: HELA/CD4 + HELA CD4+ ; method: plaque count ; mutations: RT-M184I ; result: 88.5
O=S(=O)(c1ccccc1)c1ccccc1 ; strain or isolate: UC040-R (RT-Y181C) ; cell line: CEM + CEM-SS ; method: cytopathic effect / XTT ; mutations: RT-Y181C ; result: >16.3
Cn1c2ccccc2c2c1cc(C#N)c(=O)n2-c1ccc([N+](=O)[O-])cc1 ; strain or isolate: Recombinant ; cell line: HeLa ; method: luciferase ; mutations: RT-V118I M184V ; result: 4.2
Cc1cn([C@H]2C[C@H](N=[N+]=[N-])[C@@H](CO)O2)c(=O)[nH]c1=O ; strain or isolate: HXB2-MT 65+68 (RT K65R S68G) ; cell line: MT-2 ; method: p24 / ELISA ; mutations: RT-K65R S68G ; result: 1.67
Nc1nc2c(ncn2[C@H]2CO[C@@H](CO)O2)c(=O)[nH]1 ; strain or isolate: RT M41L 67N 74V 184V 210W 215Y 181C ; mutations: RT-M41L D67N L74V Y181C M184V L210W T215Y ; result: 7.8
Cc1ccnc2c1NC(=O)c1cccnc1N2C1CC1 ; strain or isolate: RTMC ; cell line: HT4 + HT4 LacZ-1 ; method: plaque count ; mutations: RT-D67N K70R T215Y K219Q ; result: 0.833
Cc1cn([C@H]2C[C@H](N=[N+]=[N-])[C@@H](CO)O2)c(=O)[nH]c1=O ; strain or isolate: 7295-1 NRTI resistant recombinant ; cell line: PBMC ; method: RT activity ; mutations: RT-D67N T69N K70R M184V T215F K219Q ; result: 9.9
O=c1[nH]cnc2c1ncn2[C@@H]1O[C@H](CO)C[C@@H]1F ; strain or isolate: L214F(RT-L214F) ; cell line: MT-2 ; method: p24 ; mutations: RT-L214F ; result: 1.5
O=c1[nH]cnc2c1ncn2[C@H]1CC[C@@H](CO)O1 ; mutations: RT-L74V ; result: >2
CCOP(=O)(COc1ccc(C[C@H](NC(=O)O[C@H]2CO[C@H]3OCC[C@H]32)[C@H](O)CN(CC(C)C)S(=O)(=O)c2ccc(OC)cc2)cc1)OCC ; strain or isolate: IIIB ; cell line: MT-2 ; method: p24 / ELISA ; mutations: L441P ; result: 1.5
CC(C)OC(=O)OCOP(=O)(CO[C@H](C)Cn1cnc2c(N)ncnc21)OCOC(=O)OC(C)C ; strain or isolate: 56252-1 NRTI resistant recombinant ; cell line: PBMC ; method: RT activity ; mutations: RT-T69K K70G V75I F77L F116Y Q151M M184V ; result: 11
Cc1cn([C@H]2C[C@H](N=[N+]=[N-])[C@@H](CO)O2)c(=O)[nH]c1=O ; strain or isolate: NRTI resistant ; cell line: HeLa ; method: luciferase ; mutations: RT-K65R K70R V75I F77L F116Y Q151M ; result: >1
O=c1[nH]cnc2c1ncn2[C@H]1CC[C@@H](CO)O1 ; strain or isolate: JF10(RT-L210W) ; cell line: HELA-CD4+ ; method: plaque count ; mutations: RT-L210W ; result: 0.78
Nc1nc(=O)n([C@@H]2CO[C@H](CO)S2)cc1F ; strain or isolate: HXB2D (RT-M184V) ; cell line: MT-2 ; method: RT activity ; mutations: RT-M184V ; result: >15.15
CC(C)CN(C[C@@H](O)[C@H](Cc1ccccc1)NC(=O)O[C@H]1CCOC1)S(=O)(=O)c1ccc(N)cc1 ; strain or isolate: IIIB ; cell line: MT-2 ; method: p24 / ELISA ; mutations: R41K ; result: 0.8
Cc1cc(S(N)(=O)=O)ccc1NC(=O)COc1ccc(Cl)cc1C(=O)c1cc(Cl)cc(C#N)c1 ; strain or isolate: NNRTI-resistant (RT V106I Y181C) ; cell line: MAGI ; method: β-galactosidase ; mutations: RT-V106I Y181C ; result: 9.4
CC(C)(C)C(=O)c1sc(C(=O)NCc2ccccc2)c(O)c1O ; mutations: IN-T66I S153Y N155S ; result: >43
CCc1c(Sc2ccccn2)n(COCc2ccccc2)c(=O)[nH]c1=O ; strain or isolate: NL4-3 ; cell line: CEM + CEM-SS ; method: cytopathic effect / XTT ; mutations: RT-K103N ; result: 21.1
Nc1ncnc2c1ncn2CCOCP(=O)(O)O ; strain or isolate: RT A62V/V75I/F77L/F116Y/Q151M ; cell line: MT-2 ; method: p24 ; mutations: RT-A62V V75I F77L F116Y Q151M ; result: 1
COC(=O)N[C@H](C(=O)N[C@@H](Cc1ccccc1)[C@@H](O)CN(Cc1ccc(-c2ccccn2)cc1)NC(=O)[C@@H](NC(=O)OC)C(C)(C)C)C(C)(C)C ; strain or isolate: Site-directed PR mutant 04 ; cell line: HeLa ; method: β-galactosidase ; mutations: PR-M46I I54V A71V V82A ; result: 1.5
C/C=C/CSc1cc(NC(=S)c2ccsc2C)ccc1Cl ; strain or isolate: NL4-3 (RT V106I) ; cell line: CEM + CEM-SS ; method: cytopathic effect / XTT ; mutations: RT-V106I ; result: 14
O=c1[nH]cnc2c1ncn2[C@H]1CC[C@@H](CO)O1 ; strain or isolate: Q151M(RT-Q151M) ; cell line: MT-2 ; method: p24 ; mutations: RT-Q151M ; result: 1.8
Cc1cn([C@H]2C[C@H](N=[N+]=[N-])[C@@H](CO)O2)c(=O)[nH]c1=O ; strain or isolate: UC040-R (RT-Y181C) ; cell line: CEM + CEM-SS ; method: cytopathic effect / XTT ; mutations: RT-Y181C ; result: 0.8
CC(C)Oc1ccc(Cc2ccccc2)cc1C(=O)CC(=O)C(=O)O ; mutations: INTG-N155H ; result: 1
Cc1ccc(S(=O)(=O)N(CC(C)C)C[C@@H](O)[C@H](Cc2ccccc2)NC(=O)O[C@H]2CO[C@H]3OCC[C@H]32)cc1 ; strain or isolate: IIIB ; cell line: MT-2 ; method: ATP ; mutations: ATV-P36 darunavir-resistant mutant ; result: 0.5
CC(C)=CCN1Cc2cc(Cl)cc3[nH]c(=S)n(c23)C[C@@H]1C ; strain or isolate: MFE30(RT-P236L) ; cell line: MT-4 ; method: antigen ; mutations: RT-P236L ; result: 0.2
CC(C)=CCN1c2cc(Cl)cc3[nH]c(=S)n(c23)C[C@@H]1C ; cell line: MT-4 ; mutations: RT-D67N K70R T215Y K219Q A98G ; result: 2
CCCN(C)C(=O)Oc1nsnc1-c1c(Cl)ccc(N)c1Cl ; strain or isolate: IIIB ; cell line: MAGI ; method: MTT ; mutations: RT-V189I T240I ; result: >526
Nc1ccn([C@H]2C[C@H](O)[C@](CO)(CF)O2)c(=O)n1 ; cell line: HeLa ; method: β-galactosidase ; mutations: RT-L74V ; result: <0.413
Nc1ccn([C@H]2CC[C@@H](CO)O2)c(=O)n1 ; strain or isolate: HxB2-MT 65 (RT-K65R ; cell line: MT-2 ; method: p24 / ELISA ; mutations: RT-K65R ; result: 4.43

Again, the opening 3 rows:

SMILES	strain or isolate	cell line	method	mutations	result
Nc1ccn([C@H]2CC[C@@H](CO)O2)c(=O)n1	HXB2	HELA/CD4 + HELA CD4+	plaque count	Dideoxynucleoside-resistant (RT L74V)	3.8
Cc1cn([C@H]2C[C@H](N=[N+]=[N-])[C@@H](CO)O2)c(=O)[nH]c1=O	HXB2	HELA/CD4 + HELA CD4+	plaque count	RT-M184I	0.05
Nc1ccn([C@H]2CC[C@@H](CO)O2)c(=O)n1	HXB2-D184 (RT-M184V)	MT-4	RT activity	RT-M184V	5.45

Rows are shuffled and stem from different studies.